A mixed list of measured activities; the numbers were collected in NIAID ChemDB.

All rows: growth or infection tests; organism: HIV-1; cells: CEM; endpoint: EC50

An empty or dashed field is not shown. Two numbers with a dash give a range or band. ECn is the concentration giving n% inhibition of infection, replication or growth. Neighbouring rows are from separate reports.

structure,strain or isolate,mutations,method,conditions,result
COc1ccc(C)cc1CS(=O)(=O)c1cccc[n+]1[O-],IIIB,RT-Y181C,syncytia,-,50 µg/mL
NC(=O)[C@@H](N)CCCN=C(N)N,IIIB,-,-,-,500 µM
COc1ccc(S(=O)(=O)N(CC(C)C)C[C@@H](O)C[C@@H](CNCC(C)C)Cc2ccccc2)cc1,IIIB,-,p24,-,<1 µM
N[C@H]1CONC1=O,N1T,-,syncytia,-,<5 µg/mL
NCCN,IIIB,-,-,-,1000 µM
O=C(c1ccccc1)N(CCc1ccccc1)C[C@H](O)CN(CC1CCCC1)S(=O)(=O)Cc1ncc[nH]1,IIIB,-,p24,-,<1 µM
Cc1ccc(C(C)S(=O)(=O)c2c(C)ccc[n+]2[O-])c(C)c1,MN,-,syncytia,-,36 µg/mL
CC1=CC=CC2C1=NC(c1c(F)cccc1F)N2Cc1c(Cl)cccc1Cl,-,-,-,-,3.2 µM
CCCCCC=C(c1cc(Cl)c(OC)c(C(=O)O)c1)c1cc(Cl)c(OC)c(C(=O)O)c1,-,-,cytopathic effect / XTT,-,2.46–100 µM
COc1ccc(S(=O)(=O)N(CC(C)C)C[C@@H](O)[C@H](Cc2ccccc2)NC(=O)OCc2ccncc2)cc1,IIIB,-,p24,-,<1 µM
CC(C)C[C@@H](N)C(=O)O,IIIB,-,-,-,1000 µM
CC(C)CN(C[C@@H](O)[C@H](Cc1ccccc1)NC(=O)O[C@H]1CCOC1)S(=O)(=O)c1ccc(-c2ccccn2)s1,IIIB,-,p24,-,<10 µM
O=S(=O)(c1ccccc1)c1cscc1NCC(O)CN(CC1CCCC1)S(=O)(=O)c1ccccc1,IIIB,-,p24,-,<1 µM
Cc1ccc(C)c(C(C)S(=O)(=O)c2c(C)ccc[n+]2[O-])c1,IIIB,RT-L100I,syncytia,-,4.6 µg/mL
CC(C)OC(=O)c1cc(NC(=S)OC(C)C)ccc1Cl,IIIB,RT-L100I,syncytia,-,2.06 µM
CCCCCCCCCCCCCCCC(=O)Oc1ccc(OP(=O)(OCc2ccc(OC(=O)CCCC)cc2)OP(=O)(O)OP(=O)(O)OC[C@@H]2C=C[C@H](n3cc(C)c(=O)[nH]c3=O)O2)cc1,IIIB,-,syncytia / visual reading,-,0.15 µM
C[C@H](CCC=C(c1cc(Cl)c(O)c(C(=O)O)c1)c1cc(Cl)c(O)c(C(=O)O)c1)[C@H]1CC[C@H]2[C@@H]3CC[C@@H]4CCCC[C@]4(C)[C@H]3CC[C@]12C,-,-,cytopathic effect / XTT,-,19–41 µM
Cc1ccc(C)c(C(Cl)S(=O)(=O)c2cc(C)cc[n+]2[O-])c1,IIIB,RT-E103K,syncytia,-,>4 µg/mL
CCCCCCCCCCCCCCCCOP(=O)(OC[C@H]1OC(O)[C@@H](O)[C@@H](O)[C@@H]1O)OC[C@H]1O[C@@H](n2cc(C)c(=O)[nH]c2=O)C[C@@H]1N=[N+]=[N-],LAV-Bru,-,RT activity,15 d,<0.2 µM
CC(C)CN(C[C@@H](O)[C@H](Cc1ccccc1)NC(=O)OCc1ccccn1)S(=O)(=O)c1ccc(F)c(F)c1,IIIB,-,p24,-,<10 µM
Cc1ccc(C)c(CS(=O)(=O)c2cccc[n+]2[O-])c1,IIIB,RT-E103K,syncytia,-,12 µg/mL
Nc1nc2c(ncn2[C@H]2C=C[C@@H](CO)C2)c(=O)[nH]1,-,-,-,-,2 µM
Cc1ccc(C)c(CS(=O)(=O)c2ccccn2)c1,RF,-,syncytia,-,8.4 µg/mL
O=C(CNn1c(-c2ccccc2)nc2ccccc2c1=O)Nc1ccccc1,-,-,RT activity,-,70.9 µM
COc1ccc(S(=O)(=O)N(CC[C@@H](O)CN(CC(C)C)S(=O)(=O)c2ccc(OC)cc2)CC(C)C)cc1,IIIB,-,p24,-,<1 µM
Cc1cn([C@H]2C[C@H](N=[N+]=[N-])[C@@H](COP(=O)(O)OCCO[C@H]3O[C@H](CO)[C@@H](O)[C@H](O)[C@@H]3O)O2)c(=O)[nH]c1=O,LAV-Bru,-,RT activity,7 d,<0.2 µM
CCCCCCCCCCCCCCCCC(c1ccc(O)c(C(=O)O)c1)c1ccc(O)c(C(=O)O)c1,-,-,cytopathic effect / XTT,-,3.29–32.9 µM
CCCCCCCCCC[N+](C)(C)CCCNCc1c(O)cc2c(c1O)-c1cc(ccc1O)[C@H]1NC(=O)[C@@H]3NC(=O)C4NC(=O)[C@@H](Cc5ccc(c(Cl)c5)Oc5cc3cc(c5O)Oc3ccc(cc3Cl)[C@@H](O)[C@H](NC1=O)C(=O)N[C@@H]2C(=O)O)NC(=O)[C@H](N)c1ccc(O)c(c1)Oc1cc(O)cc4c1,-,RT-K103N,syncytia,-,6 µM
C[C@H](N)C(=O)O,IIIB,-,-,-,500 µM
CCCCCCCCCCCCCCCCOP(=O)(OCCO[C@@H]1O[C@H](CO)[C@@H](O)[C@H](O)[C@@H]1O)OC[C@H]1O[C@@H](n2cc(C)c(=O)[nH]c2=O)C[C@@H]1N=[N+]=[N-],LAV-Bru,-,RT activity,22 d,>1 µM
COc1ccc(S(=O)(=O)N(CC2CCCC2)C[C@@H](O)CN(CCc2ccccc2)C(=O)Oc2ccccc2)cc1,IIIB,-,p24,-,<1 µM
CC(C)CCC[C@@H](C)[C@H]1CC[C@H]2[C@@H]3CC[C@H]4C[C@@H](CCC=C(c5cc(Br)c(O)c(C(=O)O)c5)c5cc(Br)c(O)c(C(=O)O)c5)CC[C@]4(C)[C@H]3CC[C@]12C,-,-,cytopathic effect / XTT,-,6.4–42 µM
NC(=O)C[C@H](NC(=O)c1ccc2ccccc2n1)C(=O)N[C@@H](Cc1ccccc1)[C@H](O)CN(Cc1ccccc1)S(=O)(=O)c1cccc(C(F)(F)F)c1,IIIB,-,p24,-,<10 µM
CCCCCCCCCCCCCCC(=O)Oc1ccc(OP(=O)(OCc2ccc(OC(=O)CC)cc2)OP(=O)(O)OP(=O)(O)OC[C@@H]2C=C[C@H](n3cc(C)c(=O)[nH]c3=O)O2)cc1,IIIB,-,syncytia / visual reading,-,0.24 µM
COc1ccc(S(=O)(=O)N(CC(C)C)CC(O)CCN2C[C@H]3CCCC[C@H]3C[C@H]2C(=O)NC(C)(C)C)cc1,IIIB,-,p24,-,<1 µM
CC(C)CN(C[C@@H](O)[C@H](Cc1ccccc1)NC(=O)O[C@H]1CCOC1)S(=O)(=O)c1cccnc1,IIIB,-,p24,-,<1 µM
CCCCCCCCCCCCCCC(=O)Oc1ccc(OP(=O)(OCc2ccc(OC(=O)CCCCCC)cc2)OP(=O)(O)OP(=O)(O)OC[C@@H]2C=C[C@H](n3cc(C)c(=O)[nH]c3=O)O2)cc1,IIIB,-,syncytia / visual reading,-,0.15 µM

Repeating the final 3 entries:

structure,strain or isolate,mutations,method,conditions,result
COc1ccc(S(=O)(=O)N(CC(C)C)CC(O)CCN2C[C@H]3CCCC[C@H]3C[C@H]2C(=O)NC(C)(C)C)cc1,IIIB,-,p24,-,<1 µM
CC(C)CN(C[C@@H](O)[C@H](Cc1ccccc1)NC(=O)O[C@H]1CCOC1)S(=O)(=O)c1cccnc1,IIIB,-,p24,-,<1 µM
CCCCCCCCCCCCCCC(=O)Oc1ccc(OP(=O)(OCc2ccc(OC(=O)CCCCCC)cc2)OP(=O)(O)OP(=O)(O)OC[C@@H]2C=C[C@H](n3cc(C)c(=O)[nH]c3=O)O2)cc1,IIIB,-,syncytia / visual reading,-,0.15 µM